Consider one sequence from US20170130229.

Amino acid sequences for entries named in this document (tags omitted).
UniProt P03496, whole entry: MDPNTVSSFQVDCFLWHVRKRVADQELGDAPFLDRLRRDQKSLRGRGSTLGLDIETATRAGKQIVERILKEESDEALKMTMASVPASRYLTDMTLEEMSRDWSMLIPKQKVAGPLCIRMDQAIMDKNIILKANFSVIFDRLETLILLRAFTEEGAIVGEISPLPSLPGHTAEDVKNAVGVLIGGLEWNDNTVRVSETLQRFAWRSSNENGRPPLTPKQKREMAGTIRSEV

The exact form of at least one protein or probe is not confirmed. At least one result comes from cells or an extract, where the contact may be indirect.

The data set deals with NS1 (Strep rPR8) (Influenza A virus A/Puerto Rico/8/34 (H1N1)) (UniProt P03496). The data set is described as follows: pull-down. The conditions noted are these: protein in cells.

In the case of “GUCAGCAGUGCCUUAGCAGCACGUAAAUAUUGGCGUUAAGAUUCUAAAAUUAUCUCCAGUAUUAACUGUGCUGCUGAAGUAAGGUUGAC [pre-miR-16]”, the binding result is given as “binds”.
